{"source": "paper PMC3343083", "target": "wild-type H5 PB2 ‘627-domain’ (aa. 538–693) (influenza A virus A/HongKong/156/97(H5N1))", "data": [{"substance": "wild-type H5 nucleoprotein (NP), purified", "values": [{"measurement": "Kd", "result": 252, "unit": "nM"}, {"measurement": "koff", "result": 0.00337, "unit": "s⁻¹"}, {"measurement": "kon", "result": 13400, "unit": "M⁻¹ s⁻¹"}]}]}
